Test: general procedure: Fmoc solid-phase peptide synthesis; aminomethyl polystyrene with Rink Amide linker (polystyrene AM RAM, RAPP), 0.8 mmol/g; diisopropylcarbodiimide/Oxyma; PyBOP/diisopropylethylamine for the fatty diacid
Conditions: whole synthesis, analytical RP-HPLC, TFA salt

## Y-(D-Ala)-EGTFISDYSILLDKK((2-[2-(2-Amino-ethoxy)-ethoxy]-acetyl)2-(γ-Glu)-CO—(CH2)18—CO2H)AQ-Aib-DFVNWLLAQGPSSGAPPPS-NH2
  final HPLC purity: 96.8%
